A mixed list of measured activities; the numbers were collected in NIAID ChemDB.

Common to all: growth or infection tests; organism: Vaccinia virus; read-out: EC50

Two numbers with a dash give a range or band. ECn is the concentration giving n% inhibition of infection, replication or growth. Conditions beyond the fields shown may differ between rows. Blank or dashed fields: not listed here.

| compound | strain or isolate | cells | value |
|---|---|---|---|
| CCCCCCCCC#Cc1c[nH]c(=O)[nH]c1=O |  | HEL | >40 µM |
| Cc1cn([C@H]2C[C@H](O)[C@]3(CO)C[C@H]23)c(=O)[nH]c1=O | Copenhagen | HFF | 0.55 µg/mL |
| CO[C@@H]1[C@H](O)[C@@H](CO)O[C@H]1n1cnc2c(N)ncnc21 |  | PRK | 30 µg/mL |
| Nc1ncnc2c1ncn2[C@@H]1C=C(CO)[C@@H](O)[C@H]1O |  | ESM | 0.2 µg/mL |
| O=C(NCc1ccc(Cl)cc1)c1cn(N2CCOCC2)c2ccc(CN3CCOCC3)cc2c1=O |  | HFF | 45.4 µM |
| CCn1cnc(=N)c2[nH]cnc21 |  | BSC-1 | >100 µg/mL |
| O=c1[nH]c(=O)n([C@H]2C[C@H](O)[C@@H](CO)O2)cc1I | IHD | HeLa | 3.39 µg/mL |
| CCCCCCCCCCCCCCCCOCCCOP(=O)(O)COCCn1cnc2c(=O)[nH]c(N)nc21 | Copenhagen | HFF | 0.091 µM |
| Cc1nc(CC(O)CO)c2nc[nH]c(=O)n12 |  | PRK | >400 µg/mL |
| Nc1ncnc2c1ncn2C[C@H](O)CO |  | HSF | 10–20 µg/mL |
| O=C(CI)NCc1cn([C@H]2C[C@H](O)[C@@H](CO)O2)c(=O)[nH]c1=O |  | HSF | 100 µg/mL |
| Nc1nccc2c1ncn2[C@@H]1CC[C@@H](O)[C@H]1O |  | L929 | 0.13 µM |
| O=c1[nH]c(=O)n([C@H]2C[C@H](O)[C@@H](CO)O2)cc1CN1CCCC1 |  | HSF | ≥200 µg/mL |
| CCOc1cc(O)c(C(=O)/C=C/c2ccc(OC)cc2)c(OC)c1 | Rister | HeLa | >3 µg/mL |
| N=c1ncn(Cc2ccco2)c2nc[nH]c12 |  | BSC-1 | >100 µg/mL |
| Cc1cn([C@@H]2OC3COP(=O)(O)OC3[C@H]2O)c(=O)nc1N |  |  | >400 µg/mL |
| CC(=O)Nc1nc2c(CC(O)CO)ncn2c(=O)[nH]1 |  | PRK | >200 µg/mL |
| Cc1cc(C)nc(NS(=O)(=O)c2ccc(N=C3C(=O)Nc4ccccc43)cc2)n1 |  | HFF | 55 µM |
| CCc1cn([C@H]2C[C@H](O)[C@@H](CO)O2)c(=O)[nH]c1=O |  | BSC-1 | 27 µg/mL |
| Cc1cn([C@@H]2O[C@H](COP(=O)(O)O)[C@@H](O)[C@H]2O)c(=O)nc1N |  |  | >400 µg/mL |
| CC(C)CCOC(=O)C(O)Cn1cnc2c(N)ncnc21 |  | Primary rabbit kidney cells | 20 µg/mL |
| CCCCCc1cn([C@@H]2O[C@H](COP(=O)(O)O)[C@@H](O)[C@H]2O)c(=O)nc1N |  |  | >400 µg/mL |
| CCCCCC#Cc1c[nH]c(=O)[nH]c1=O |  | HEL | >200 µM |
| Nc1ncnc2c1ncn2C1CC(COP(=O)(O)O)[C@@H](O)[C@H]1O |  | PRK | 2 µg/mL |
| Cc1cc(C)nc(NS(=O)(=O)c2ccc(N=C3C(=O)Nc4ccc(F)cc43)cc2)n1 |  | HFF | >60 µM |
| Nc1ncnc2c1ncn2[C@@H]1C[C@H](CO)[C@@H](O)[C@H]1O |  | PRK | 2 µg/mL |
| NCC[C@H](N)C[C@H]1O[C@@H](n2cnc3c(N)ncnc32)[C@H](O)[C@@H]1O | Lederle CA | L929 | ~700 µM |
| CC(C)c1cn([C@@H]2OC3COP(=O)(O)OC3[C@H]2O)c(=O)nc1N |  |  | >400 µg/mL |
| O=c1[nH]c(=O)n([C@H]2C[C@H](O)[C@@H](CO)O2)cc1Cc1ccccc1 |  | HSF | 600 µM |
| CO[C@H]1[C@H](O)[C@H](n2cnc3c(N)ncnc32)O[C@@H]1CO |  | PRK | 20 µg/mL |
| Cc1nnc2nc3c(nn12)c1ccccc1n3C | WR | BSC-1 | <60 µg/mL |
| Cc1nc(C(C)C)c2[nH]c(=S)[nH]c(=O)n12 |  | PRK | >200 µg/mL |
| CC(=O)N1C(=O)C(=Nc2ccc(S(=O)(=O)Nc3nc(C)cc(C)n3)cc2)c2cc(Cl)ccc21 |  | HFF | >300 µM |
| CN[C@H]1C[C@@H](n2cnc3c(N)ncnc32)[C@H](O)[C@@H]1O |  | HFF | >100 µg/mL |
| COC(=O)[C@H]1[C@@H]2C[C@@H](O[C@@H]3O[C@H](C)[C@@H](O)[C@H](N)[C@@H]3O)/C=C/C=C/C=C/C=C/C=C/C=C/C=C/[C@H](C)[C@@H](O)[C@H](C)[C@H](C)OC(=O)C[C@H](O)C[C@H](O)[C@@H](O)CC[C@H](O)C[C@H](O)C[C@](O)(C[C@@H]1O)O2 |  | HFF | 5 µg/mL |
| CCCCCCC#Cc1cn(S(=O)(=O)c2ccc(C)cc2)c(=O)[nH]c1=O |  | HEL | >200 µM |
| CCCn1cnc(=N)c2[nH]cnc21 |  | BSC-1 | >100 µg/mL |
| O=Cc1cn([C@H]2C[C@H](O)[C@@H](CO)O2)c(=O)[nH]c1=O |  | HSF | 0.1 µg/mL |

Again, the opening 3 rows:

compound | strain or isolate | cells | value
CCCCCCCCC#Cc1c[nH]c(=O)[nH]c1=O |  | HEL | >40 µM
Cc1cn([C@H]2C[C@H](O)[C@]3(CO)C[C@H]23)c(=O)[nH]c1=O | Copenhagen | HFF | 0.55 µg/mL
CO[C@@H]1[C@H](O)[C@@H](CO)O[C@H]1n1cnc2c(N)ncnc21 |  | PRK | 30 µg/mL